Data as given in PubChem BioAssay AID624099 (ICCB-Longwood, 2012).
Shown is a random part of about 21,000 reagents tested. 497 of all reagents (2.4%) count as active. 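Higher z means weaker E2 silencing; only reporter increases were scored, and knock-downs that hurt cell survival may mask genuine repressor factors.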 A number with no mark means an inactive call.

Test: 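Human genes that papillomavirus E2 requires to repress the HPV18 LCR promoter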 (primary screen)
Cell system: human C33A cervical carcinoma cells (HPV-negative) stably expressing BPV1 E2 and an HPV18 LCR luciferase reporter
Reagent: siRNA pool against human genes, 40 nM
Timing: 72 h
Detection: 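Per-well luciferase luminescence, z-scored on each plate against the plate mean and SD with control wells left out, then averaged across three replicate plates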
Reading the numbers: mean z-score and z-score: higher = stronger reporter signal, weaker E2 silencing
Hit rule: 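Mean z ≥ 2 together with z ≥ 2 in two or more of the three replicates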

GPAA1 (glycosylphosphatidylinositol anchor attachment 1) → mean z-score: -0.78; z-score, replicate A: -0.94; z-score, replicate B: -0.73; z-score, replicate C: -0.66
LOC391840 (retired record) → mean z-score: -0.6; z-score, replicate A: -1.01; z-score, replicate B: -0.52; z-score, replicate C: -0.28
THAP4 (THAP domain containing 4) → mean z-score: 1; z-score, replicate A: 0.77; z-score, replicate B: 1.44; z-score, replicate C: 0.8
LOC391144 (retired record) → mean z-score: 0.99; z-score, replicate A: 1.5; z-score, replicate B: 0.72; z-score, replicate C: 0.75
EDEM1 (ER degradation enhancing alpha-mannosidase like protein 1) → mean z-score: 0.04; z-score, replicate A: 0.27; z-score, replicate B: -0.19; z-score, replicate C: 0.03
SASS6 (SAS-6 centriolar assembly protein) → mean z-score: 2.42 (active); z-score, replicate A: 2.91; z-score, replicate B: 2.53; z-score, replicate C: 1.82
LOC388461 (retired record) → mean z-score: -0.65; z-score, replicate A: -0.77; z-score, replicate B: -0.74; z-score, replicate C: -0.45
LENG8 (leukocyte receptor cluster member 8) → mean z-score: -0.91; z-score, replicate A: -0.65; z-score, replicate B: -1.06; z-score, replicate C: -1
NPAS4 (neuronal PAS domain protein 4) → mean z-score: -2.36; z-score, replicate A: -2.59; z-score, replicate B: -2.24; z-score, replicate C: -2.25
COL21A1 (collagen type XXI alpha 1 chain) → mean z-score: 1.14; z-score, replicate A: 1.59; z-score, replicate B: 0.5; z-score, replicate C: 1.31
CT47A11 (cancer/testis antigen family 47 member A11) → mean z-score: -0.24; z-score, replicate A: -0.22; z-score, replicate B: 0; z-score, replicate C: -0.49
ZSWIM3 (zinc finger SWIM-type containing 3) → mean z-score: -0.52; z-score, replicate A: -0.63; z-score, replicate B: -0.78; z-score, replicate C: -0.16
ZMYM5 (zinc finger MYM-type containing 5) → mean z-score: 0.45; z-score, replicate A: 0.43; z-score, replicate B: 0.54; z-score, replicate C: 0.39
PMS2P2 → mean z-score: 2.68 (active); z-score, replicate A: 2.8; z-score, replicate B: 2.65; z-score, replicate C: 2.58
FOXN3-AS1 (FOXN3 antisense RNA 1) → mean z-score: -1.05; z-score, replicate A: -0.26; z-score, replicate B: -1.73; z-score, replicate C: -1.15
EDIL3 (EGF like and discoidin domains 3) → mean z-score: 0.44; z-score, replicate A: 0.38; z-score, replicate B: 0.6; z-score, replicate C: 0.33
RPL37P6 (ribosomal protein L37 pseudogene 6) → mean z-score: -2.9; z-score, replicate A: -2.56; z-score, replicate B: -3.25; z-score, replicate C: -2.9
LOC400047 (retired record) → mean z-score: 0.31; z-score, replicate A: 0.21; z-score, replicate B: 0.43; z-score, replicate C: 0.29
NPM2 (nucleophosmin/nucleoplasmin 2) → mean z-score: 0.38; z-score, replicate A: 0.53; z-score, replicate B: 0.55; z-score, replicate C: 0.04
ZNF546 (zinc finger protein 546) → mean z-score: -0.09; z-score, replicate A: -0.04; z-score, replicate B: -0.09; z-score, replicate C: -0.14
MAPKAPK3 (MAPK activated protein kinase 3) → mean z-score: 0.99; z-score, replicate A: 0.9; z-score, replicate B: 0.97; z-score, replicate C: 1.11
